Measurements: patent publication US20250026813A1, “Antibodies against sars-cov-2 and uses thereof” (published 2025)
Where “and” joins values, the source holds several entries; their conditions need not be identical. Equal entries are not always repeated.

Molecular target: SARS-CoV-2 spike trimer protein (wild type), in the envelope of lentiviral pseudovirus particles (SARS-CoV-2, UniProt P0DTC2 14-1273)
Assay: cell-based or functional assay

Row | Binder | Fold change relative to SAD S35 antibody | pseudovirus neutralisation IC50
1 | IMPI-063 (antibody, V domains shown) VH: EVQLVESGGGVVRPGGSLRLSCAASGFTFDDYGMSWVRQAPGKGLEWVSGIYWNGGSTGYADSVKGRFTISRDNAKNSLYLQMNSLRAEDMALYYCARGVGATDYWGQGTLVTVSS VL: EIVLTQSPGTLSLSSGERATLACRASESVRGSFLAWYQQKPGQAPRLLIYGASRRATGIPDRFSGSGSGTDFTLTISRLEPEDFAVYYCQQYGNSPMCSFGQGTKLEIK | 0.35 fold | 9980 pM and 1.5 ug/ml

Molecular target: SARS-CoV-2 spike protein on live wild type virus SARS-CoV-2/England/IC19/2020 (SARS-CoV-2, UniProt P0DTC2 14-1273)
Assay: cell-based or functional assay

Row | Binder | SARS COV2 neutralisation (complete virus inhibition, pM)
2 | IMPI-029 (antibody, V domains shown) VH: EVQLVESGGGLIQPGGSLRLSCAASGVTVSSNYMNWVRQAPGKGLEWVSVIYSGGSTYYADSVKGRFTISRDNSKNTLFLQMNSLRAEDSAVYYCARDLGPYGVDVWGQGTTVTVSS VL: DIQLTQSPSFLSASVGDRVTITCWASQGISSYLAWYQQKPGKAPKLLIYAASTLQSGVPSRFSGSGSGTEFTLTISSLQPEDFATYYCQELNSYPLTFGQGTRLEIK [IMPI-029, listing 1 of 2 here] | 781 pM
3 | IMPI-047 (antibody, V domains shown) VH: EVQLVESGGGLIQPGGSLRLSCAASGFTVSSNYMNWVRQAPGKGLEWVSVIYSGGSTYYADSVKGRFTISRDNSKNTLYLQMNSLRTEDTAVYYCARDLVAYGMDVWGQGTTVTVSS VL: DIQLTQSPSFLSASVGDRVTITCWASQGISSYLAWYQQKPGKAPKVLIYAASTLQSGVPSRFSGSGSGTEFTLTISSLQPEDFATYYCQLLNSNPLTFGGGTKVEIK [IMPI-047, listing 1 of 2 here] | 781 pM
4 | IMPI-017 (antibody, V domains shown) VH: EVQLVESGGGLIQPGGSLRLSCAAAGLTVSSNYMNWVRQVPGKGLEWVSVIYSGGSTYYADSVKGRFTISRDNSKNTLYLQMNSLRAEDTAVYYCARDLGTLGMDVWGQGTTVTVSS VL: DIQLTQSPSFLSASVGDRVTITCWASQGISTYLAWYQQKPGKAPKLLIYAASTLQSGVPSRFSGSGSGTEFTLTISSLQPEDFATYYCQQLNSYLPTFGQGTKVEIK [IMPI-017, listing 1 of 2 here] | 781 pM
5 | IMPI-005 (antibody, V domains shown) VH: EVQLVESGGGLIQPGGSLRLSCAASGFTVSSNYMNWVRQAPGKGLEWVSVIYSGGSTYYADSVKGRFTISRDNSKNTLFLQMNSLRAEDSAVYYCARDLGPYGVDVWGQGTTVTVSS VL: DIQLTQSPSFLSASVGDRVTITCWASQGISSYLAWYQQKPGKAPKLLIYAASTLQSGVPSRFSGSGSGTEFTLTISSLQPEDFATYYCQELNSYPLTFGQGTRLEIK [IMPI-005, listing 1 of 2 here] | 1560 pM
6 | IMPI-059 (antibody, V domains shown) VH: EVQLVESGGGLIQPGGSLRLSCAASGFTVSSIYMSWVRQAPGKGLEWVSIIYSRGSTDYADSVKGRFTISRDISKNTLYLQMNSLRAEDTAVYYCARDGTMVRGVHAFDIWGQGTMVTVSS VL: DIQMTQSPPSLSASIGDRVTITCQASQDISNYLNWYQQKPGKAPKLLIYDASNLETGVPSRFSGSGSGTDFTLTISNLQPEDIVTYYCQQYDNLPSSFGQGTKLEIK | 1560 pM
7 | IMPI-054 (antibody, V domains shown) VH: EVQLVESGGGLIQPGGSLRLSCAASGLTVSSNYMSWVRQAPGKGLEWVSIIYSGGSTYYADSVKGRFTISRDNSKNTLYLQMNSLRAEDTAVYYCARLGGYYYYGMDVWGQGTTVTVSS VL: DIQMTQSPSSLSASVGERVTITCQASQDIRNYLNWYQKKPGKAPKLLIYDSSNLETGVPSRFSGSGSGTDFTFTISSLQPEDIATYYCQQYDNLPITFGQGTRLEIK | 391 pM
8 | IMPI-006 (antibody, V domains shown) VH: QLQLQESGPGLVKPSETLSLTCTVSGGSISNSNYYWGWIRQPPGKGLEWIGSIYYSGRTYYNPSLKSRVTISVDTSKNQFSLKLSSVTAADTAVYYCARMGLLWFGEFYGMDVWGQGTTVTVSS VL: DIQMTQSPSSLSASVGDRVTITCRASQGISSWLAWYQQKPEKAPKSLIYDASSLQRGVPSRFSGSGSGTDFTLTISSLQPEDFASYYCQQYNSYPLTFGGGTRVEIK | 25000 pM
9 | IMPI-055 (antibody, V domains shown) VH: QVQLVQSGAEVKKPGASVKVSCKASGYTFTSYDINWVRQATGQGLEWMGWMNPNSGNTGYAQKFQGRVTMTRDTSINTAYMELSSLRSEDTAVYFCARGGRYCSDVTCYSGEPFDYWGQGTLVTVSS VL: EIMLTQSPDFQSVTPKEKVTITCRASQSIGSSLHWYQQKPDQSPKLLIKFASQSISGVPSRFSGSGSGTDFTLTINSLEAEDAAAYYCHQSSSLPHTFGPGTKVEIK | 391 pM

Molecular target: SARS-CoV-2 spike protein of the WA-1 strain live virus (carrying D614G) (SARS-CoV-2, UniProt P0DTC2 14-1273)
Assay: cell-based or functional assay

Row | Binder | Live virus WA-1 strain IC50
10 | IMPI-005 (antibody, V domains shown) VH: EVQLVESGGGLIQPGGSLRLSCAASGFTVSSNYMNWVRQAPGKGLEWVSVIYSGGSTYYADSVKGRFTISRDNSKNTLFLQMNSLRAEDSAVYYCARDLGPYGVDVWGQGTTVTVSS VL: DIQLTQSPSFLSASVGDRVTITCWASQGISSYLAWYQQKPGKAPKLLIYAASTLQSGVPSRFSGSGSGTEFTLTISSLQPEDFATYYCQELNSYPLTFGQGTRLEIK [IMPI-005, listing 2 of 2 here] | 0.011 µg/mL
11 | IMPI-017 (antibody, V domains shown) VH: EVQLVESGGGLIQPGGSLRLSCAAAGLTVSSNYMNWVRQVPGKGLEWVSVIYSGGSTYYADSVKGRFTISRDNSKNTLYLQMNSLRAEDTAVYYCARDLGTLGMDVWGQGTTVTVSS VL: DIQLTQSPSFLSASVGDRVTITCWASQGISTYLAWYQQKPGKAPKLLIYAASTLQSGVPSRFSGSGSGTEFTLTISSLQPEDFATYYCQQLNSYLPTFGQGTKVEIK [IMPI-017, listing 2 of 2 here] | 0.01 µg/mL
12 | IMPI-047 (antibody, V domains shown) VH: EVQLVESGGGLIQPGGSLRLSCAASGFTVSSNYMNWVRQAPGKGLEWVSVIYSGGSTYYADSVKGRFTISRDNSKNTLYLQMNSLRTEDTAVYYCARDLVAYGMDVWGQGTTVTVSS VL: DIQLTQSPSFLSASVGDRVTITCWASQGISSYLAWYQQKPGKAPKVLIYAASTLQSGVPSRFSGSGSGTEFTLTISSLQPEDFATYYCQLLNSNPLTFGGGTKVEIK [IMPI-047, listing 2 of 2 here] | 0.012 µg/mL
13 | IMPI-021 (antibody, V domains shown) VH: EVQLVESGGGLIQPGGSLRLSCAASGVTVSSNYMSWVRQAPGKGLEWVSVIYSGGSTFYADSVKGRFTISRDNSKNTLYLQMNSLRAEDTAVYYCARDLSYYGMDVWGQGTTVTVSS VL: DIQLTQSPSFLSASVGDRVTITCWASQGISSYLAWYQQKPGKAPKLLIYAASTLQSGVPSKFSGSGSGTEFTLTISSLQPEDFATYYCQQLNSYPCSFGQGTKLEIK | 0.003 µg/mL
14 | IMPI-029 (antibody, V domains shown) VH: EVQLVESGGGLIQPGGSLRLSCAASGVTVSSNYMNWVRQAPGKGLEWVSVIYSGGSTYYADSVKGRFTISRDNSKNTLFLQMNSLRAEDSAVYYCARDLGPYGVDVWGQGTTVTVSS VL: DIQLTQSPSFLSASVGDRVTITCWASQGISSYLAWYQQKPGKAPKLLIYAASTLQSGVPSRFSGSGSGTEFTLTISSLQPEDFATYYCQELNSYPLTFGQGTRLEIK [IMPI-029, listing 2 of 2 here] | 0.002 µg/mL
15 | IMPI-042 (antibody, V domains shown) VH: EVQLVESGGGLIQPGGSLRLSCAASGLTVSSNYMSWVRQAPGKGLEWVSIIYSGGSTYYADSVKGRFTISRDNSKNTLYLQMNSLRAEDTAVYYCARLGGYYYYGMDVWGQGTTVTVSS VL: DIQMTQSPSSLSASVGERVTITCQASQDIRNYLNWYQKKPGKAPKLLIYDSSNLETGVPSRFSGGGSGTDFTFTISSLQPEDIATYYCQQYDNLPITFGQGTRLEIK | 0.012 µg/mL
